From patent US20110008279A1, “Methods and Compositions Relating to Adhesins as Adjuvants” (priority 2005, published 2011) come the findings set out here.

For the series, the system named is mo-DCs. Briefly: Alexa-NadAΔ351-405 binding to mo-DCs (flow cytometry, Scatchard analysis). More on the design: species or system human. The note with it: Scatchard plot. As for the experimental part:
In some cases, DCs primed or not with IFN-γ were treated at 37° C. for 1 hour with FCS/RPMI containing Bafilomycin A1 200 nM, incubated at 37° C. (in RPMI medium supplemented with 10% FBS and Bafilomycin A1) or 0° C. (in PBS supplemented with 10% FBS) for 3 hours with different concentrations (0.0375-5 μM) of Alexa-NadAΔ351-405 or NadA. Afterward cells were washed and suspended in FACS buffer for FACS analysis. Scatchard plots were constructed from data obtained from cell-associated mean fluorescence intensities due to cell-bound Alexa NadA were measured. The dissociation constant Kd and maximal binding capacities were then determined by Scatchard analyses.
(A flow cytometer gives signals particle by particle.)

As to NadAΔ351-405, the “fraction of binding sites with high affinity” value is given as 20-30% and the “fraction of binding sites with low affinity” value is given as 70-80%.
